PubChem BioAssay AID624099, ICCB-Longwood | 2012
Test: 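Host factors E2 relies on to silence an HPV18 LCR reporter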 (primary screen). Cell system: human C33A cervical carcinoma cells (HPV-negative) stably expressing BPV1 E2 and an HPV18 LCR luciferase reporter. Reagent: siRNA pool against human genes, 40 nM. Timing: 72 h. Read-out: 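Per-well luciferase luminescence, z-scored on each plate against the plate mean and SD with control wells left out, then averaged across three replicate plates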. Reading the numbers: mean z-score and z-score: higher = stronger reporter signal, weaker E2 silencing. Call rule: 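Hit if mean z-score reaches 2 and two or more of three replicate z-scores also reach 2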.
The whole screen tested about 21,000 reagents; shown is a random part of them. 497 of them (2.4%) count as active. 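Higher z means weaker E2 silencing; only reporter increases were scored, and knock-downs that hurt cell survival may mask genuine repressor factors.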

| gene | mean z-score | z-score, replicate A | z-score, replicate B | z-score, replicate C | outcome |
| --- | --- | --- | --- | --- | --- |
| MAGEH1 (MAGE family member H1) | 0.12 | 0.19 | 0.12 | 0.04 | inactive |
| CEP350 (centrosomal protein 350) | -0.12 | -0.02 | -0.02 | -0.34 | inactive |
| PRKAB2 (protein kinase AMP-activated non-catalytic subunit beta 2) | -0.3 | -0.15 | -0.41 | -0.33 | inactive |
| OR2T2 (olfactory receptor family 2 subfamily T member 2) | -1.51 | -1.75 | -1.44 | -1.34 | inactive |
| LOC389671 (retired record) | -0.63 | -0.99 | -0.7 | -0.2 | inactive |
| DERA (deoxyribose-phosphate aldolase) | 0.1 | 0.27 | 0.15 | -0.13 | inactive |
| NREP (neuronal regeneration related protein) | 0.34 | 0.29 | 0.21 | 0.52 | inactive |
| VGF (VGF nerve growth factor inducible) | 0.13 | 0.08 | 0.12 | 0.18 | inactive |
| TMEM71 (transmembrane protein 71) | -0.58 | -0.88 | -0.51 | -0.36 | inactive |
| LINC00905 (long independently transcribed non-coding RNA 905) | -0.16 | 0.42 | -0.18 | -0.72 | inactive |
| TFAP2B (transcription factor AP-2 beta) | -0.67 | -0.34 | -1.18 | -0.48 | inactive |
| LOC401529 (retired record) | 0.13 | 0.36 | -0.06 | 0.09 | inactive |

A portion from the list above:
| gene | mean z-score | z-score, replicate A | z-score, replicate B | z-score, replicate C | outcome |
| --- | --- | --- | --- | --- | --- |
| TMEM71 (transmembrane protein 71) | -0.58 | -0.88 | -0.51 | -0.36 | inactive |
| LINC00905 (long independently transcribed non-coding RNA 905) | -0.16 | 0.42 | -0.18 | -0.72 | inactive |
| TFAP2B (transcription factor AP-2 beta) | -0.67 | -0.34 | -1.18 | -0.48 | inactive |

More reagents:
| gene | mean z-score | z-score, replicate A | z-score, replicate B | z-score, replicate C | outcome |
| --- | --- | --- | --- | --- | --- |
| HEYL | -0.54 | -0.36 | -0.85 | -0.4 | inactive |
| TAS2R38 (taste 2 receptor member 38) | 0.14 | 0 | 0.13 | 0.29 | inactive |
| NRG2 (neuregulin 2) | 0.58 | 0.22 | 0.55 | 0.98 | inactive |
| S100A7P3 (S100 calcium binding protein A7 pseudogene 3) | 0.04 | 0.44 | -0.29 | -0.04 | inactive |
| GRPEL1 (GrpE like 1, mitochondrial) | -0.3 | -0.23 | -0.33 | -0.36 | inactive |
| ZNF419 (zinc finger protein 419) | 0.78 | 1.06 | 0.81 | 0.48 | inactive |
| SLC25A5 | 0.11 | -0.08 | 0.34 | 0.09 | inactive |
| CTR9 (CTR9 component of Paf1/RNA polymerase II complex) | -0.91 | -0.98 | -0.89 | -0.84 | inactive |
| TCIRG1 | -1.59 | -1.51 | -1.85 | -1.4 | inactive |
| SERPINA13P (serpin family A member 13, pseudogene) | 0.63 | 0.66 | 0.52 | 0.71 | inactive |
| POFUT3 (protein O-fucosyltransferase 3) | -0.06 | -0.32 | 0.05 | 0.1 | inactive |
